Experimental data reported in patent US20110104263A1.

Biological target: T1, GST-Cldn4.R4 (GST-Ecl2.CT, Aa 138-210) (mouse), O35054
T1 chain: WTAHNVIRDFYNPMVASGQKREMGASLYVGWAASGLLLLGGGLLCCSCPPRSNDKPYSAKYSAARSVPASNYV
Assay: SPR, biotinylated peptide on SA chip, GST-Cldn4.R4 analyte, 1:1 Langmuir fit

For SLDAGQYVLVMKANSSYSGNYPYSILFQKF (modifications not checked) [Biotin(B)-PEG10-Cpe30], the Kd was 9.87 nM, the koff was 0.00128 s⁻¹ and the kon was 130000 M⁻¹ s⁻¹.
